The source of these data is article PMC4100338 (Frontiers in Chemistry, 2014).

By UniProt entry, the sequences of proteins in these tests, tags left out. Where a name states a change or a piece, a line headed by the entry shows the natural chain unless it says otherwise.
UniProt P37967: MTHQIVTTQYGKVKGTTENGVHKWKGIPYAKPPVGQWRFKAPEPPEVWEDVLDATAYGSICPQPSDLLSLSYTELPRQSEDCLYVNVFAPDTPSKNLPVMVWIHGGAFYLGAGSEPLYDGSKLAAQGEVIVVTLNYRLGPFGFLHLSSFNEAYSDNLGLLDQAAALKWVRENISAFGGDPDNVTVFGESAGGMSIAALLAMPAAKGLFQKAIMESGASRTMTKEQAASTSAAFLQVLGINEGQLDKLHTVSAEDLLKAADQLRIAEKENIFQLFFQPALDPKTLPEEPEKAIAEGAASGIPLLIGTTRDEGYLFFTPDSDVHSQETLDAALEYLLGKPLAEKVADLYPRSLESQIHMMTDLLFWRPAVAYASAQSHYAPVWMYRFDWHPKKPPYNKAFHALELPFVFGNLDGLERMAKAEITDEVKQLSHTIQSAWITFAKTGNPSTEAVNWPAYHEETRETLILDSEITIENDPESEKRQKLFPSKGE

SMILES strings stand for the structures.

The assay deals with pNBE (Bacillus subtilis, UniProt P37967). Put plainly: biochemical.

For orientation: IC50 means the concentration that inhibits the measured activity by half. Take `CCOP(=O)(OCC)Oc1ccc([N+](=O)[O-])cc1` [paraoxon, diethyl p-nitrophenylphosphate]: the IC50 reads like this: (IC50 (upper limit)) at most 0.5 nM; (observed IC50) 0.37 nM.
